Like-named read-outs stand apart in the source and are kept apart here.
System: SARS-CoV-2 Wuhan-Hu-1 D614G, Caco-2 cells
Settings: for SARS-CoV-2 infection, Mean (0 nM = 100): Fig. 6b, D614G isolate; for IC50: read-out: IC50 SARS-CoV-2 Wuhan-Hu-1 D614G, Caco-2 cells
[1] = in-cell ELISA 2 days post infection

## CC(=O)N[C@H](CCCNC(=N)N)C(=O)N[C@@H](CC1CCC1)C(=O)NC(CCCNC(=N)N)C(=O)c1nc2ccccc2s1 (stereo partly shown)
Compound 32 nM
  SARS-CoV-2 infection, Mean (0 nM = 100): 91.0762
Compound 160 nM
  SARS-CoV-2 infection, Mean (0 nM = 100): 89.0772
Compound 800 nM
  SARS-CoV-2 infection, Mean (0 nM = 100): 89.0473
Compound 4000 nM
  SARS-CoV-2 infection, Mean (0 nM = 100): 86.8294
Compound 20000 nM
  SARS-CoV-2 infection, Mean (0 nM = 100): 98.4444
Compound 100000 nM
  SARS-CoV-2 infection, Mean (0 nM = 100): 4.981
[1]
  IC50: 51.2 µM

## CC(=O)N[C@@H](Cc1c[nH]cn1)C(=O)N1CCC[C@H]1C(=O)NC(CCCNC(=N)N)C(=O)c1nc2ccccc2s1 (stereo partly shown)
Compound 32 nM
  SARS-CoV-2 infection, Mean (0 nM = 100): 95.0117
Compound 160 nM
  SARS-CoV-2 infection, Mean (0 nM = 100): 95.6018
Compound 800 nM
  SARS-CoV-2 infection, Mean (0 nM = 100): 92.7997
Compound 4000 nM
  SARS-CoV-2 infection, Mean (0 nM = 100): 99.0112
Compound 20000 nM
  SARS-CoV-2 infection, Mean (0 nM = 100): 29.611
Compound 100000 nM
  SARS-CoV-2 infection, Mean (0 nM = 100): 0.596
[1]
  IC50: 15.4 µM

## CC(=O)N[C@@H](CC(N)=O)C(=O)N1CCC[C@H]1C(=O)NC(CCCNC(=N)N)C(=O)c1nc2ccccc2s1 (stereo partly shown)
Compound 32 nM
  SARS-CoV-2 infection, Mean (0 nM = 100): 88.8992
Compound 160 nM
  SARS-CoV-2 infection, Mean (0 nM = 100): 90.2993
Compound 800 nM
  SARS-CoV-2 infection, Mean (0 nM = 100): 89.0817
Compound 4000 nM
  SARS-CoV-2 infection, Mean (0 nM = 100): 98.5858
Compound 20000 nM
  SARS-CoV-2 infection, Mean (0 nM = 100): 11.6994
Compound 100000 nM
  SARS-CoV-2 infection, Mean (0 nM = 100): 0.2339
2 days post infection
  IC50: 11.9 µM
[1]
  IC50: 11.9 µM
